Source: PubChem BioAssay AID588499 (NMMLSC, 2011)
Only a part is listed here, and it is no random draw. Active and inactive are the calls of the source. Rule as the data show it: active = inhibition above about 30%; inconclusive = no clear call, values can overlap the other calls; inactive = below that.

test system: Botulinum neurotoxin type A light chain protease (Clostridium botulinum A str. ATCC 3502); test: blockers of BoNT/A LC substrate cleavage – biochemical, flow cytometry, MLPCN library, primary screen (AID 588499); conditions: multiplex microsphere protease substrate cleavage, at 10 µM, stronger effect = higher value; also: plate controls were buffer without enzyme for full effect and enzyme alone for no effect

SMILES | inhibition
Cc1cc(C)cc(OP(C)(=O)Nc2ccc(SC(F)(F)F)cc2)c1 (centres undefined) | inactive: -0.4%
CCOP(C)(=S)SCC(=O)NC(C)C(=O)O (centres undefined) | inactive: 0.2%
CCOC(=O)c1ccc(NP(C)(=O)Oc2ccc(OC)cc2)cc1 (centres undefined) | inactive: -0.7%
CP(=O)(Nc1ccccn1)Oc1ccc(Cl)cc1 (centres undefined) | inactive: -0.2%
CP(=S)(Nn1cnnc1)Oc1ccccc1 (centres undefined) | inactive: -0.4%
COc1ccccc1OP(C)(=O)Nc1ccccc1 (centres undefined) | inactive: 1.1%
CP(=O)(Nc1ccccc1Br)Oc1ccccc1 (centres undefined) | inactive: -0.2%
O=[N+]([O-])c1cc([N+](=O)[O-])c(Nc2cccnc2)c([N+](=O)[O-])c1 | inactive: -1%
CC(C)(C)c1ccc(OP(C)(=O)Nc2ccc(SC(F)(F)F)cc2)cc1 (centres undefined) | inactive: -0.5%
Cc1cccc(C)c1OP(C)(N)=O (centres undefined) | inactive: -0.4%
O=[N+]([O-])c1ccc2c(c1)C=Nc1ccccc1O2 | inactive: 0.2%
CCOC(=O)c1ccc(NP(C)(=O)Oc2ccccc2)cc1 (centres undefined) | inactive: -0.1%
COc1ccccc1OP(C)(=O)Nc1ccc(C)cc1 (centres undefined) | inactive: 0.2%
Cc1ccc(NP(C)(=O)Oc2ccccc2)c(C)c1 (centres undefined) | inactive: -0.6%
COc1ccccc1OP(C)(=O)Nc1cc(Cl)ccc1C (centres undefined) | inactive: -1.9%
COc1ccc(OP(C)(=O)Nc2cccc(F)c2)cc1 (centres undefined) | inactive: -0.6%
Cc1cc(C)cc(OP(C)(N)=O)c1 (centres undefined) | inactive: 1.5%
CCN(CC)CCCOC(=O)C(O)(c1ccccc1)c1ccccc1 | inactive: -0.6%
COc1ccccc1-c1ccccn1.O=[N+]([O-])c1cc([N+](=O)[O-])c(O)c([N+](=O)[O-])c1 | inactive: 0%
COc1ccccc1OP(C)(=O)Nc1cccc(Br)c1 (centres undefined) | inactive: -1.3%

SMILES | inhibition
Cc1cc(C)cc(OP(C)(=O)Nc2ccc(C)cc2C)c1 (centres undefined) | inactive: 0%
CCOC(=O)c1ccc(NP(C)(=O)Oc2cc(C)cc(C)c2)cc1 (centres undefined) | inactive: 0.2%
CP(=O)(Nc1cccc(Br)c1)Oc1ccccc1 (centres undefined) | inactive: -1.1%
Cc1cc(C)cc(OP(C)(=O)Nc2ccccn2)c1 (centres undefined) | inactive: -0.3%
Cc1ccc(C)c(NP(C)(=O)Oc2ccccc2)c1 (centres undefined) | inactive: -2%
O=C(O)c1cccc(Nc2c([N+](=O)[O-])cc([N+](=O)[O-])cc2[N+](=O)[O-])c1 | inactive: 0.7%
CC1=NCCc2c1[nH]c1ccccc21.O=[N+]([O-])c1cc([N+](=O)[O-])c(O)c([N+](=O)[O-])c1 | inactive: 4.6%
O=[N+]([O-])c1cc([N+](=O)[O-])c(Nc2nnnn2CCO)c([N+](=O)[O-])c1 | inactive: 3%
CC1=C2N=C(C=C3N=C(C(C)=C4[N-][C@@](C)([C@@H]5N=C1[C@](C)(CCC(=O)NC[C@@H](C)OP(=O)([O-])O[C@H]1[C@@H](O)[C@@H](n6cnc7cc(C)c(C)cc76)O[C@@H]1CO)[C@H]5CC(N)=O)[C@@](C)(CC(N)=O)[C@@H]4CCC(N)=O)[C@@](C)(CC(N)=O)[C@@H]3CCC(N)=O)C(C)(C)[C@@H]2CCC(N)=O.[C-]#N.[Co+3] | inactive: -0.6%
CCOC(=O)C(CC)C1=NC(C)(C)Cc2ccccc21.O=[N+]([O-])c1cc([N+](=O)[O-])c(O)c([N+](=O)[O-])c1 (centres undefined) | inactive: -0.7%
COc1ccccc1OP(C)(=O)Nc1c(C)cccc1C (centres undefined) | inactive: -1%
CN1CCCCC1COC(=O)C1(O)c2ccccc2CCc2ccccc21 (centres undefined) | inactive: -0.8%
CP(=O)(Nc1ccc(SC(F)(F)F)cc1)Oc1ccccc1 (centres undefined) | inactive: 0.2%
CCCOc1ccc(NP(C)(=O)Oc2ccc(Cl)cc2)cc1 (centres undefined) | inactive: -2.1%
COc1ccc(-c2ccccn2)cc1.O=[N+]([O-])c1cc([N+](=O)[O-])c(O)c([N+](=O)[O-])c1 | inactive: -1.3%
O=[N+]([O-])c1cc([N+](=O)[O-])c(-n2nnc3ccccc32)c([N+](=O)[O-])c1 | inactive: 1.2%
CN(Cc1cccnc1)C(=O)COc1ccc(Cl)c(Cl)c1.O=[N+]([O-])c1cc([N+](=O)[O-])c(O)c([N+](=O)[O-])c1 | inactive: 0.1%
O=[N+]([O-])c1cc([N+](=O)[O-])c(-c2cnn(-c3ccccc3)c2)c([N+](=O)[O-])c1 | inactive: 0.1%
Cc1nc2ccc3ccccc3c2s1.O=[N+]([O-])c1cc([N+](=O)[O-])c(O)c([N+](=O)[O-])c1 | inactive: -0.2%
